A mixed list of measured activities; the numbers were collected in NIAID ChemDB.

Shared fields: enzyme or target tests; agent: Hepatitis C virus; protein: Nonstructural protein 5B; read-out: inhibition

Conditions beyond the fields shown may differ between rows. Inhibition is in % at the dose shown (toxicity tests: loss of growth or viability).

{"structure": "O=C(Nc1ccc2[nH]ncc2c1)c1cc(NCCN2CCOCC2)c(F)cc1F", "dose": "0.1 µg/mL", "value": "14%"}
{"structure": "COc1nc(Nc2ccc3[nH]ncc3c2)nc(NN2CCOCC2)n1", "dose": "10 µg/mL", "value": "62%"}
{"structure": "O=C(Nc1ccc2cn[nH]c2c1)c1cc(NCCO)c(F)cc1F", "dose": "10 µg/mL", "value": "50%"}
{"structure": "COc1nc(NCCc2c[nH]c3ccccc23)nc(Nc2ccc3[nH]ncc3c2)n1", "dose": "1 µg/mL", "value": "22%"}
{"structure": "CCN(CCO)c1cc(C(=O)Nc2ccc3cn[nH]c3c2)c(F)cc1F", "dose": "10 µg/mL", "value": "37%"}
{"structure": "O=C(O)c1ccc(S(=O)(=O)Nc2ccc(N3CCOCC3)cc2)cc1", "dose": "0.01 µg/mL", "value": "24%"}
{"structure": "CSc1nc(Nc2ccc(N3CCOCC3)cc2)cc(N2CCN(CC(=O)NCCN3CCOCC3)CC2)n1", "dose": "1 µg/mL", "value": "68%"}
{"structure": "COc1nc(Nc2ccc3cn[nH]c3c2)nc(-n2ccnc2)n1", "dose": "10 µg/mL", "value": "40%"}
{"structure": "O=C(Nc1ccc2cn[nH]c2c1)c1cc(NCCc2ccccn2)c(F)cc1F", "dose": "0.1 µg/mL", "value": "14%"}
{"structure": "COc1nc(NCCCN2CCOCC2)nc(Nc2ccc3cn[nH]c3c2)n1", "dose": "10 µg/mL", "value": "84%"}
{"structure": "O=C(NCCc1ccncc1)c1ccc(S(=O)(=O)Nc2ccc(N3CCOCC3)cc2)cc1", "dose": "10 µg/mL", "value": "90%"}
{"structure": "COc1nc(NCCCN2CCOCC2)nc(Nc2ccc3[nH]ncc3c2)n1", "dose": "0.1 µg/mL", "value": "20%"}
{"structure": "CC(C)CNc1cc(C(=O)Nc2ccc3cn[nH]c3c2)c(F)cc1F", "dose": "1 µg/mL", "value": "23%"}
{"structure": "CSc1nc(Nc2ccc(N3CCOCC3)cc2)cc(N2CCN(CC(=O)N3CCC(N4CCCC4)CC3)CC2)n1", "dose": "1 µg/mL", "value": "76%"}
{"structure": "CC(Cc1ccccn1)Nc1cc(C(=O)Nc2ccc3cn[nH]c3c2)c(F)cc1F", "dose": "0.1 µg/mL", "value": "0%"}
{"structure": "CSc1nc(Nc2ccc(N3CCOCC3)cc2)cc(N2CCN(CC(=O)N(C)CCO)CC2)n1", "dose": "1 µg/mL", "value": "67%"}
{"structure": "O=C(Nc1ccc2cn[nH]c2c1)c1cc(NCCN2CCOCC2)c(F)cc1F", "dose": "1 µg/mL", "value": "26%"}
{"structure": "CSc1nc(Nc2ccc(N3CCOCC3)cc2)cc(N2CCN(CC(=O)N(C)C)CC2)n1", "dose": "1 µg/mL", "value": "70%"}
{"structure": "O=C(NCCc1cccnc1)c1ccc(S(=O)(=O)Nc2ccc(N3CCOCC3)cc2)cc1", "dose": "1 µg/mL", "value": "68%"}
{"structure": "COc1nc(Nc2ccc3cn[nH]c3c2)nc(NN2CCN(C)CC2)n1", "dose": "0.1 µg/mL", "value": "30%"}
{"structure": "CSc1nc(Nc2ccc(N3CCOCC3)cc2)cc(N2CCN(CC(=O)N3CCN(c4cccc(C(F)(F)F)c4)CC3)CC2)n1", "dose": "1 µg/mL", "value": "65%"}
{"structure": "CC(C)NC1=NC(NC(C)C)N(CN)C(Nc2ccc3cn[nH]c3c2)=N1", "dose": "1 µg/mL", "value": "56%"}
{"structure": "O=C(Nc1ccc2[nH]ncc2c1)c1cc(NCCO)c(F)cc1F", "dose": "1 µg/mL", "value": "20%"}
{"structure": "COc1nc(NCCN2CCOCC2)nc(Nc2ccc3[nH]ncc3c2)n1", "dose": "10 µg/mL", "value": "33%"}
{"structure": "Cc1cnc(CNC(=O)c2ccc(S(=O)(=O)Nc3ccc(N4CCOCC4)cc3)cc2)cn1", "dose": "1 µg/mL", "value": "75%"}

Repeating the final 2 entries:

structure	dose	value
COc1nc(NCCN2CCOCC2)nc(Nc2ccc3[nH]ncc3c2)n1	10 µg/mL	33%
Cc1cnc(CNC(=O)c2ccc(S(=O)(=O)Nc3ccc(N4CCOCC4)cc3)cc2)cn1	1 µg/mL	75%